1 molecule from ChEMBL document CHEMBL6120975 (2024) can be followed below.

Amino acid sequences for entries named in this document (tags omitted).
UniProt P36544, whole entry, looked up: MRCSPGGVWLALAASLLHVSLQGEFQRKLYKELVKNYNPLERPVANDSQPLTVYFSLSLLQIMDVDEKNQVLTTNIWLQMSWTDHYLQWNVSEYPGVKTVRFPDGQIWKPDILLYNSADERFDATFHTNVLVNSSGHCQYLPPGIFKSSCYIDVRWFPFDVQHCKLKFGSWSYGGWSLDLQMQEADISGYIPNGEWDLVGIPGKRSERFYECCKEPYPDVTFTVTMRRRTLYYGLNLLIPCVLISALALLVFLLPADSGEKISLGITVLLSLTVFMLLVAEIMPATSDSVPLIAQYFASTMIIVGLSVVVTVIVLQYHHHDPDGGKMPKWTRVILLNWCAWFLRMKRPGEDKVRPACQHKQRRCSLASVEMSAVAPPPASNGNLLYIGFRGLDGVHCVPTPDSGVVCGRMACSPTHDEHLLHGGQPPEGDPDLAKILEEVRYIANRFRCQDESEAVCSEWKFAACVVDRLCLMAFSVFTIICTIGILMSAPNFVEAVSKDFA

The structures appear in SMILES notation.

The assay has as its target Neuronal acetylcholine receptor subunit alpha-7 (Homo sapiens, UniProt P36544). The experiment in a line: Inhibition of human alpha7 nAChR expressed in acetylcholine-induced Xenopus laevis oocytes assessed as inhibition of acetylcholine-induced current by measuring fold change at 100 nM incubated for 5 mins by two electrode voltage-clamp assay. The note with it: Oocyte. On the technique in general: Two-electrode voltage clamp holds a large cell at a set potential and records current.

On to `CC[C@H](C)[C@H](NC(=O)[C@H](CCCNC(=N)N)NC(=O)[C@H](CCCNC(=N)N)NC(=O)[C@H](Cc1ccc(O)cc1)NC(=O)[C@H](CCCNC(=N)N)NC(=O)[C@H](CCCNC(=N)N)NC(=O)[C@H](CCCNC(=N)N)NC(=O)[C@H](CCCNC(=N)N)NC(=O)[C@H](CC(=O)O)NC(=O)[C@H](Cc1ccc(O)cc1)NC(=O)[C@@H]1CCCN1C(=O)[C@H](CO)NC(=O)[C@H](CCCNC(=N)N)NC(=O)[C@H](Cc1ccc(O)cc1)NC(=O)[C@H](CCCNC(=N)N)NC(=O)CNC)C(=O)N[C@H](C(=O)N[C@@H](CC(=O)O)C(N)=O)[C@@H](C)O`, for which the fold change (FC) is 3.
